A mixed list of measured activities; the numbers were collected in NIAID ChemDB.

Shared fields: whole-cell or culture tests; species: HIV-2; read by: syncytia; read-out: EC50

Conditions beyond the fields shown may differ between rows. Blank or dashed fields: not listed here. ECn: concentration that inhibits the pathogen or its effect by n%.

compound	cell line	strain	value
O=S(=O)(Cc1ccccc1I)c1cccc[n+]1[O-]	CEM	ROD	8 µg/mL
CCc1nc([N+](=O)[O-])c(N2CCN(C(=O)CCC(=O)OC)CC2)n1Cc1ccccc1	MT-4	ROD	>38.1 µg/mL
N#CC(c1ccc(F)cc1)S(=O)c1cccc[n+]1[O-]	CEM	ROD	>0.8 µg/mL
CCCCCCCCCC(=O)Oc1ccc(COP(=O)(OCc2ccc(OC(C)=O)cc2)OP(=O)(O)OCC2C=C[C@H](n3cc(C)c(=O)[nH]c3=O)O2)cc1	CEM/TK-	ROD	6.31 µM
O=C1NCC2(C(=O)C3C=CC=CC13)C1CC3CC(C1)CC2C3	CEM	ROD	>20 µg/mL
NC1=NS(=O)(=O)N(Cc2ccccc2)c2nc(Cc3ccccc3)[nH]c21	CEM	ROD	≥4 µg/mL
Cc1cc(C)c(S(=O)(=O)OCC2OC3OC4C(CO)OC(OC5C(CO)OC(OC6C(CO)OC(OC7C(CO)OC(OC8C(CO)OC(OC9C(C[n+]%10ccccc%10)OC(OC2C(O)C3O)C(O)C9O)C(O)C8O)C(O)C7O)C(O)C6O)C(O)C5O)C(O)C4O)c(C)c1	MOLT-4	GH-1	<64.4 µg/mL
O=c1[nH]c(=O)n([C@H]2C=C[C@@H](CO)O2)cc1F	CEM + CEM/0	ROD	>10 µM
COc1ccc(C)cc1CS(=O)(=O)c1cccc[n+]1[O-]	CEM	EHO	44 µg/mL
Cc1ccc(C)c(C(c2ccccc2)S(=O)(=O)c2cccc[n+]2[O-])c1	CEM	ROD	>20 µg/mL
NC(=O)c1cc2c([nH]c3ccccc32)c(-c2ccc(CO)o2)n1	C8166	ROD	0.57 µM
CCCCCCCCCC(=O)Oc1ccc(COP(=O)(OCc2ccc(OC(=O)CCCC)cc2)OP(=O)(O)OCC2C=C[C@H](n3cc(C)c(=O)[nH]c3=O)O2)cc1	CEM	ROD	1.05 µM
C=C(C)[C@]1(O)C[C@@H](C)[C@@]2(O)[C@H]([C@H]1OC(=O)/C=C/C=C/CCCCC)[C@@H]1O[C@]1(CO)[C@@H](O)[C@]1(O)C(=O)C(C)=C[C@H]12	C8166	ROD	0.03132 µM
COc1ccc(CS(=O)c2cccc[n+]2[O-])cc1OC	CEM	ROD	>0.8 µg/mL
O=c1oc2cc(Cc3ccccc3)ccc2n1CCN1CCOCC1	CEM	ROD	>8 µg/mL
Nc1cccc2c1C(=O)N(C1C3CC4CC(C3)CC1C4)C2=O	CEM	ROD	>4 µg/mL
CC(C)C(=O)Oc1ccc(COP(=O)(OCc2ccc(OC(=O)C(C)C)cc2)OP(=O)([O-])OC[C@@H]2CC[C@H](n3ccc(=O)[nH]c3=O)O2)cc1	CEM/TK-	ROD	>50 µM
COC(=O)C(C)NP(=O)(OC[C@@H]1C=C[C@H](n2cc(F)c(=O)[nH]c2=O)O1)Oc1ccccc1	CEM + CEM/0	ROD	33 µM
Nc1nc(Cl)cc(OC[C@@H]2O[C@H](COCc3ccccc3)[C@@H](OCc3ccccc3)[C@H]2OCc2ccccc2)n1	CEM	ROD	>10 µM
[O-][n+]1ccccc1SCc1ccccc1	CEM	ROD	>100 µg/mL
CCCCC(=O)Oc1ccc(COP(=O)(OCc2ccc(OC(=O)c3ccc(C)cc3)cc2)OP(=O)(O)OCC2C=C[C@H](n3cc(C)c(=O)[nH]c3=O)O2)cc1	CEM/TK-	ROD	6.31 µM
O=[N+]([O-])c1ccc(SCc2ccccc2)nc1	CEM	ROD	>20 µg/mL
Cc1ccc(C)c(CS(=O)c2ccc(Cl)c[n+]2[O-])c1	CEM	EHO	2.4 µg/mL
O=C1CCCC(C23CC4CC(C2)CC(N2C(=O)c5ccccc5C2=O)(C4)C3)C1	CEM	ROD	>4 µg/mL
Nc1cc(OC[C@H]2CC[C@@H](COCc3ccccc3)O2)ncn1	CEM	ROD	>50 µM
N[C@H]1C(=O)N[C@@H]2Cc3ccc(c(Cl)c3)Oc3cc4cc(c3O)Oc3ccc(cc3Cl)[C@@H](O)[C@@H]3NC(=O)[C@H](NC(=O)[C@@H]4NC(=O)[C@@H](NC2=O)c2cc(O)cc(c2)Oc2cc1ccc2O)c1ccc(O)c(c1)-c1c(O)cc(O)cc1[C@@H](C(=O)C1NCCC2CCCCC21)NC3=O	CEM		8.2 µM
CC(=O)Oc1ccc(COP(=O)(OCc2ccc(OC(=O)c3ccc(C(F)(F)F)cc3)cc2)OP(=O)(O)OCC2C=C[C@H](n3cc(C)c(=O)[nH]c3=O)O2)cc1	CEM	ROD	1.05 µM
CCC(=O)c1ccc2c(c1)sc(=O)n2Cc1ccccc1	CEM	ROD	>8 µg/mL
COc1cc(OC[C@H]2CC[C@@H](CO)O2)nc(N)n1	CEM	ROD	>50 µM
Cc1ccc(C)c(CSc2ccc(Cl)c[n+]2[O-])c1	CEM	ROD	>100 µg/mL
CCc1nc([N+](=O)[O-])c(N2CCN(C(=O)OCn3c4ccccc4c4ccccc43)CC2)n1Cc1ccccc1	MT-4	ROD	>9.24 µg/mL
Cc1c(Cl)c(Cl)c(CS(=O)(=O)c2cccc[n+]2[O-])c(Cl)c1Cl	CEM	ROD	≥0.8 µg/mL
Nc1ccnc(OC[C@H]2CC[C@@H](CO)O2)n1	CEM	ROD	>250 µM
COc1cccnc1SCc1cc(C)ccc1C	CEM	ROD	40 µg/mL
Cc1ccc(C)c(CS(=O)(=O)c2cccc[n+]2[O-])c1	CEM	EHO	14 µg/mL
COc1ccc2c(c1)C(=O)N(c1c(C)cccc1C)C2=O	CEM	ROD	>140 µM
Cc1ccc(C)c(CSc2ncccc2O)c1	CEM	ROD	>4 µg/mL
O=C(c1cccc(F)c1)c1ccc2c(c1)oc(=O)n2CCN1CCOCC1	CEM	ROD	>8 µg/mL
O=C(O)C(O[C@@H]1CC[C@H](n2cc(F)c(=O)[nH]c2=O)C1)P(=O)(O)O	CEM	ROD	>250 µM
CCc1nc([N+](=O)[O-])c(N2CCN(C(=O)c3ccc(F)cc3)CC2)n1Cc1ccccc1	MT-4	ROD	>63.2 µg/mL
O=C1NC23CC4CC(C2)C2C(C4)C3C2(O)c2ccccc21	CEM	ROD	>20 µg/mL
O=C(NC12CC3CC(CC(C3)C1)C2)c1ccc([N+](=O)[O-])cc1	CEM	ROD	>66.2 µM
Cc1ccc(C)c(CS(=O)(=O)c2cccc[n+]2[O-])c1	CEM	ROD	10 µg/mL
Cc1cccc(C)c1N1C(=O)c2ccc(O)cc2C1=O	CEM	ROD	>30 µM
CCCCCCCCCCCC(c1cc(C)ccc1C)S(=O)(=O)c1cccc[n+]1[O-]	CEM	ROD	>20 µg/mL
CCc1nc([N+](=O)[O-])c(N2CCN(C(=O)CSC)CC2)n1Cc1ccccc1.COc1ccccc1	MT-4	ROD	>5.29 µg/mL
COC(=O)C12CC3CC(C1)CC(N1C(=O)c4ccccc4C1=O)(C3)C2	CEM	ROD	>20 µg/mL
Nc1nc(NC2CC2)c2ncn([C@H]3C=C[C@@H](CO)C3)c2n1	CEM	ROD	4.2 µM
CC(=O)OCCOCN1c2nc(Cc3ccccc3)[nH]c2C(N)=NS1(=O)=O	CEM	ROD	8 µg/mL
Cc1ccc(C)c(CS(=O)(=O)c2cccc(C)[n+]2[O-])c1	CEM	ROD	>100 µg/mL
Cc1cccc(CS(=O)(=O)c2cccc[n+]2[O-])c1	CEM	ROD	12 µg/mL
Cc1cccc(C)c1NC(=O)c1ccc(N)cc1	CEM	ROD	>165 µM
CCCCCCCCCCCC(=O)Oc1ccc(COP(=O)(OCc2ccc(OC(=O)CCCCCCCCCCC)cc2)OP(=O)([O-])OC[C@@H]2C=C[C@H](n3ccc(=O)[nH]c3=O)O2)cc1	CEM	ROD	>50 µM
COc1ccc(C)cc1CSc1cccc[n+]1[O-]	CEM	ROD	≥20 µg/mL
Cc1cn([C@H]2CC[C@@H](OCC(=O)O)C2)c(=O)[nH]c1=O	CEM	ROD	>250 µM
Cc1ccc(C)c(CSc2c(Cl)ccc[n+]2[O-])c1	CEM	ROD	>20 µg/mL
Cc1cccc(C(=O)c2ccc3[nH]c(=O)sc3c2)c1	CEM	ROD	3.5 µg/mL
c1ccc(COC[C@H]2CC[C@@H](COc3cc(OC[C@H]4CC[C@@H](COCc5ccccc5)O4)ncn3)O2)cc1	CEM	ROD	>10 µM
O=c1[nH]c(=O)n([C@H]2C=C[C@@H](CO)O2)cc1Cl	CEM + CEM TK-	ROD	>50 µM
Cc1ccc(C(C)S(=O)(=O)c2c(C)ccc[n+]2[O-])c(C)c1	CEM	ROD	>100 µg/mL
CCc1nc([N+](=O)[O-])c(N2CCN(C(=O)CSCc3ccccc3)CC2)n1Cc1ccccc1	MT-4	ROD	>6.48 µg/mL
Cc1cn([C@H]2C=C[C@@H](CO)O2)c(=O)[nH]c1=O	CEM/TK-	ROD	250 µM
O=[N+]([O-])c1ccc[n+]([O-])c1SCc1ccccc1	CEM	EHO	>20 µg/mL
Nc1nc(OC[C@H]2CC[C@@H](COCc3ccccc3)O2)cc(OC[C@@H]2CC[C@H](COCc3ccccc3)O2)n1	CEM	ROD	>10 µM
Cc1ccc(CS(=O)c2cccc[n+]2[O-])cc1	CEM	ROD	>4 µg/mL
Cn1c(=O)sc2cc(C(=O)c3cccc([N+](=O)[O-])c3)ccc21	CEM	ROD	>8 µg/mL
CCc1nc([N+](=O)[O-])c(N2CCN(C(=O)CCl)CC2)n1Cc1ccccc1	MT-4	ROD	>0.5 µg/mL
O=c1ccn([C@H]2C=C[C@@H](CO)O2)c(=O)[nH]1	CEM/TK-	ROD	>250 µM
Cc1ccc(C)c(CS(=O)(=O)c2c(O)ccc[n+]2[O-])c1	CEM	ROD	>100 µg/mL
CC(C)(C)C(=O)OC[C@@H]1C=C[C@H](n2cc(Cl)c(=O)[nH]c2=O)O1	CEM + CEM/0	ROD	≥10 µM
N#C/C(=C/c1ccc(Cl)cc1Cl)S(=O)(=O)c1cccc[n+]1[O-]	CEM	ROD	>4 µg/mL
Nc1nc2c(ncn2[C@H]2C=C[C@@H](CO)C2)c(=O)[nH]1	CEM	ROD	2.3 µM
Cc1ccc(C)c(C(Cc2ccccc2)Sc2cccc[n+]2[O-])c1	CEM	ROD	>4 µg/mL
CCCCC(=O)c1ccc2c(c1)sc(=O)n2Cc1ccccc1	CEM	ROD	>40 µg/mL
Cc1ccc(C)c(C(C)S(=O)(=O)c2c(C)ccc[n+]2[O-])c1	CEM	ROD	>20 µg/mL
Cc1ccc(C(C)S(=O)c2cccc[n+]2[O-])c(Cl)c1	CEM	ROD	>0.8 µg/mL
O=C1c2ccccc2[C@@]2(O)C3C4C[C@H]5CC(C[C@H]3C5)C4N12	CEM	ROD	>20 µg/mL
Nc1nc(Cl)cc(OC[C@H]2O[C@H](COCc3ccccc3)[C@@H](OCc3ccccc3)[C@H]2OCc2ccccc2)n1	CEM	ROD	>250 µM
COc1ccc(CS(=O)c2cccc[n+]2[O-])cc1	CEM	ROD	>0.8 µg/mL

For reference, 7 entries again:

compound | cell line | strain | value
Nc1cccc2c1C(=O)N(C1C3CC4CC(C3)CC1C4)C2=O | CEM | ROD | >4 µg/mL
Cc1cccc(CS(=O)(=O)c2cccc[n+]2[O-])c1 | CEM | ROD | 12 µg/mL
Nc1nc(Cl)cc(OC[C@H]2O[C@H](COCc3ccccc3)[C@@H](OCc3ccccc3)[C@H]2OCc2ccccc2)n1 | CEM | ROD | >250 µM
N#C/C(=C/c1ccc(Cl)cc1Cl)S(=O)(=O)c1cccc[n+]1[O-] | CEM | ROD | >4 µg/mL
Nc1ccnc(OC[C@H]2CC[C@@H](CO)O2)n1 | CEM | ROD | >250 µM
N#CC(c1ccc(F)cc1)S(=O)c1cccc[n+]1[O-] | CEM | ROD | >0.8 µg/mL
O=C1NCC2(C(=O)C3C=CC=CC13)C1CC3CC(C1)CC2C3 | CEM | ROD | >20 µg/mL